“And” between values parts separate entries of the source, which are not always exact repeats. Identical values can stand only once.
Test system: sub-genomic HCV GT1b replicon (BM4-5 FEO), GT1b WT
Experiment: HCV replicon assay (luciferase antiviral efficacy)
Type: cell-based, hepatitis C virus
Conditions: not given
Protocol: The 20 compounds from class C were tested […] for inhibition of viral replication (GT1b wild-type) in BM4-5 FEO cells and for mammalian cell cytotoxicity. The numbers of virus particles were evaluated by quantifying luciferase produced during the virus life cycle^41 while toxicity was evaluated using a cell viability assay. […] Prior to additional biochemical studies, several key chemical properties for each of the Class C molecules were determined.
Replicon construct. The BM4-5 replicon is a sub-genomic HCV GT1b replicon that contains adaptive mutation of serine in the NS5A region^41. The firefly luciferase gene was added into the BM4-5 replicon to generate BM4-5 FEO replicon. The construction procedures have been previously described^42.
Luciferase antiviral efficacy and cells viability assays. BM4-5 FEO replicon approximately 10,000 cells in 100 μL of medium were seeded into 96-well plates and incubate for 6 h for attachment. Then, the compounds were added at to the wells in specific concentration and incubate for 48 h. The luciferase assay (Bright-Glo; Promega) was carried out according to the manufacturer's instructions. Luciferase activity was determined using a microplate luminometer (Veritas microplate luminometer; Turner Biosystems). For cells viability assays, BM4-5 FEO at the density 10,000 cells in 100 μL medium was incubated at 37° C. for 6 h for attachment, then the compounds were added and incubated for another 48 hours. The number of living cells were measured by Cell Titer-blue assay (Promega). The fluorescence absorption (560Ex/590Em) for 96-well plate was read by Benchmark Scientific MR9600 with. The activity and toxicity of each compound were measured by at least six different concentrations in triplicate.

Row | Structure (SMILES) | Therapeutic Index
1 | COc1ccc(OC)c(NC(=O)NC(Cc2c[nH]c3ccccc23)C(=O)NCCCN2CCCCC2C)c1 (stereo not drawn) [Compound 9] | >1.95

Same assay, conditions: ratio of LC50/EC50

Row | Structure (SMILES) | Therapeutic Index
2 | CC1CCCCN1CCCNC(=O)C(Cc1c[nH]c2ccc(F)cc12)NC(=O)Nc1cc(Cl)ccc1Cl (stereo not drawn) [Compound 2] | 1.13
3 | CC1CCCCN1CCCNC(=O)C(Cc1c[nH]c2ccccc12)NC(=O)Nc1ccc(N(C)C)cc1 (stereo not drawn) [Compound 6] | >1.58
4 | Cc1ccc2[nH]cc(CC(NC(=O)Nc3cc(Cl)ccc3Cl)C(=O)NCCCN3CCCCC3C)c2c1 (stereo not drawn) [Compound 7] | 5.62
5 | CC(=O)c1cccc(NC(=O)NC(Cc2c[nH]c3ccccc23)C(=O)NCCCN2CCCCC2C)c1 (stereo not drawn) [Compound 8] | >9.16
6 | COc1ccc2[nH]cc(CC(NC(=O)Nc3cc(Cl)ccc3Cl)C(=O)NCCCN3CCCCC3C)c2c1 (stereo not drawn) [Compound 10] | >3.03
7 | O=C(Nc1ccccc1Br)NC(Cc1c[nH]c2ccccc12)C(=O)NCCCNC1CC2CCC1C2 (stereo not drawn) [Compound 11] | 1.11
8 | CC1CCCCN1CCCNC(=O)C(Cc1c[nH]c2ccccc12)NC(=O)Nc1c(F)cc(Br)cc1F (stereo not drawn) [Compound 13] | 0.34
9 | CC1CCCC(C)N1NCCCNC(=O)C(Cc1c[nH]c2ccccc12)NC(=O)Nc1ccccc1Br (stereo not drawn) [Compound 14] | 17.94
10 | O=C(Nc1cccc(Br)c1)NC(Cc1c[nH]c2ccccc12)C(=O)NCCCNC1CCCCCC1 (stereo not drawn) [Compound 15] | 3.64
11 | CCOC(=O)C1CCCCN1CCCNC(=O)C(Cc1c[nH]c2ccccc12)NC(=O)Nc1ccccc1Br (stereo not drawn) [Compound 17] | 0.91
12 | O=C(Nc1ccccc1Br)NC(Cc1c[nH]c2ccccc12)C(=O)NCCCNC1CCCCC1O (stereo not drawn) [Compound 18] | 8.11
13 | O=C(Nc1ccccc1Br)NC(Cc1c[nH]c2ccccc12)C(=O)NCCCNC1CCC(O)CC1 (stereo not drawn) [Compound 19] | >3.06
14 | O=C(Nc1cccc(Br)c1)N[C@@H](Cc1c[nH]c2ccccc12)C(=O)NCCCN1CCCCC1 [Compound 21] | 22.72
15 | CC(C)c1ccc(NC(=O)N[C@@H](Cc2c[nH]c3ccccc23)C(=O)NCCCN2CCCCC2)cc1 [Compound 22] | 73.4 and 73.39
